# HIV-1 5' UTR: DMS reactivities by position

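Randomly mutated transcripts starting with one, two or three G (1G, 2G, 3G), capped or uncapped, were folded for 30 min at 37 °C. Monomer and dimer bands were cut from native gels after folding in high salt (300 mM KCl, 5 mM MgCl2) or low salt (40 mM KCl, 0.1 mM MgCl2). Gel slices were treated with 170 mM dimethyl sulfate for 15 min at 37 °C and read by mutational profiling against an ethanol control.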

The 5' region of HIV-1 NL4-3 RNA (positions 1-437):
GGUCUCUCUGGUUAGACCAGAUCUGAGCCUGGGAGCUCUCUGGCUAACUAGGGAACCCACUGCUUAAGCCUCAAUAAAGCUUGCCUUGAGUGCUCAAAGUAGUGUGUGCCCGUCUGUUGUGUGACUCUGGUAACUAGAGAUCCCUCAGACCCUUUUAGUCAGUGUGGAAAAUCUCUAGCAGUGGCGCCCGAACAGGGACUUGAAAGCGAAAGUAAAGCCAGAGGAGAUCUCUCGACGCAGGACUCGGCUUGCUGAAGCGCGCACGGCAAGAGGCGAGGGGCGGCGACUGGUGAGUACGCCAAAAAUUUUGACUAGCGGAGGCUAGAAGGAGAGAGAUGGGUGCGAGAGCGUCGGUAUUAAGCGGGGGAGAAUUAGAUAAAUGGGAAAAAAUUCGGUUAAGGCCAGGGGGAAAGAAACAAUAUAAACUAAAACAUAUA

Values are winsor-normalised DMS reactivities of A and C; higher means more reactive, usually unpaired. Sample: 1G capped high-salt dimer. One numbering serves 1G, 2G and 3G. A position is written with its base.

- A271 -> 0.58
- C274 -> 0.24
- A276 -> 0.38
- C281 -> 0.46
- C284 -> 0.16
- A286 -> 0.66
- C287 -> 0.41
- A293 -> 0.93
- A296 -> 0.62
- C297 -> 0.14
- C299 -> 0.07
- C300 -> 0.09
- A301 -> 0.26
- A302 -> 1.22
- A303 -> 0.08
- A304 -> 0.20
- A305 -> 0.71
- A311 -> 1.36
- C312 -> 0.08
- A314 -> 0.04
- C316 -> 0.05
- A319 -> 0.96
- C322 -> 0.04
- A324 -> 0.07
- A326 -> 0.97
- A327 -> 1.07
- A330 -> 0.83
- A332 -> 0.52
- A334 -> 0.45
- A336 -> 0.85
- C343 -> 0.32
- A345 -> 1.31
- A347 -> 0.32
- C349 -> 0.32
- C352 -> 0.45
- A356 -> 0.97
- A359 -> 0.59
- A360 -> 0.62
- C362 -> 0.35
- A368 -> 0.81
- A370 -> 0.53
- A371 -> 0.94
- A374 -> 0.55
- A376 -> 0.78
- A378 -> 0.22
- A379 -> 0.61
- A380 -> 0.84
- A385 -> 0.54
- A386 -> 1.29
- A387 -> 0.24
- A388 -> 0.10
- A389 -> 0.22
- A390 -> 0.88
- C393 -> 0.66
- A398 -> 0.29
- A399 -> 0.39
- C402 -> 0.04
- C403 -> 0.04
- A404 -> 0.23
- A410 -> 0.39
- A411 -> 0.81
- A412 -> 0.51
- A414 -> 0.53
- A415 -> 0.25
- A416 -> 0.43
- C417 -> 0.84
- A418 -> 0.64
- A419 -> 0.50
- A421 -> 0.38
- A423 -> 0.47
- A424 -> 0.41
- A425 -> 0.56
- C426 -> 0.80
- A428 -> 0.10
- A429 -> 0.72
- A430 -> 0.59
- A431 -> 0.65
- C432 -> 0.94
- A433 -> 0.74
- A435 -> 0.53
- A437 -> 0.04

Values reported by Ye et al. 2022 (doi:10.1038/s41594-022-00746-2).